In article PMC6985210:

What follows are sequences tested against His6-CRP (cAMP receptor protein) (UniProt A6TEZ6) (assay: EMSA). Settings: cAMP (1 nmol in gel), CRP 0-2 uM; EMSA: His6-CRP 0, 0.6, 1, 2 uM, room temperature 30 min, 6% native PAGE containing 1 nmol cAMP; 10 ng unlabeled probe as cold competitor; salt and pH not stated; recombinant protein; protein details: His6 (N-terminal, pET28a); label: biotin 3' end; probe letters rebuilt from the primers and the genome.
“CAGGTCAGCTGCCACGATACCACCGACATCTTCCGGCGCAGCGCCCTGGCCGGCCCACTGGAACGGTACCACGCCGATAGGGCGCGCCGAGTCCACCCCCTGGGTGATCTCGATACGTACTTCTGCGTGCAGCACCGCCGCCCACAGCATTAAAAAACCAAATGCTACTCGTAATGCCTGCTTCATCATATCTCCCTTATCCGGGCGGAAAGCCCACGATAATTTAGCAGAATGTTAACAAACTCAAATATACAAAACTACCAAAACCCTGTGACTACCATAGATTGTTTTTCCCCGTTTGCACGGGGAAAAATGTCACTGAGGTTTGAAGTCCAGTGGCGCATTTTTGAAGACTTCATATACTGCCTGGCTAGGTGGTTTCGGAAACTTAGCCTGTCGGGCTGCGGCAAGAGCGGCCTGGCACAGAGCAGGATCACCACCTTCGGACTGTATATTTAACAACAGGCCGTCAGGAGCAAGTTTGATACGCA (double strand) [tolB promoter probe]”: binds.
“TCTGATTAAACTGAAAGACGGCGTGGGCCTGCTGCCGACCTCGCTGGACATCGTCGAGAACCCGAAAAACCTGAAGATTGTTGAACTGGAGGCGCCGCAGCTGCCGCGTTCCCTGGACGATGCGCAGATTGCGCTGGCCGTTATCAACACCACTTACGCCAGCCAGATTGGCCTGACCCCGGCGAAAGACGGCATCTTTGTTGAAGGTAAAGAGTCTCCTTACGTGAACCTGATTGTGGCGCGTGAAGACAATAAAGATGCTGAGAATGTGAAAAAATTCGTTCAGGCTTACCAGAGCGATGAAGTTTACGAAGCAGCGAACAAGATCTTTAACGGCGGTGCCGTGAAAGGCTGGTAATCTTTTCTCACCGTAATATCATTCAGGACGGGCTTCACGCCCGTCTTGTCATTTATGCAAGCACCTGATTCAATAACGCCCTGTTTTTTATTCATTGAGGAAATACT (double strand) [rcsF promoter probe]”: binds.
“TGCGAGCACTAGGCAAGTTGATGCCGGGCGAAGAAGAGGTGGCAGAGAATCCACGCGCCCGTAGTTCAGTGCTGCGTATCGCAGAGAGGACGAACGCATGATCGGCAGAGTGACAGAGGCCTTAAGCAAGGTTAAAGGGTCGATTGGAAGCAACGAGCGCCATGCTTTGCCTGGCGTGATCGGGGACGACCTTCTGCGGTTTGGGAAACTGCCACTCTGCTTGTTCATTTGCATCATTATTACGGCGATTACCGTGGTCACCACTGCGCATCACACGCGCCTGTTGACCGCGCAGCGTGAACAGCTGGTTCTGGAGCGCGACGCCCTGGATATTGAGTGGCGCAACCTGATCCTCGAAGAGAACGCGCTCGGCGATCACAGTCGGGTTGAGCGGATCGCGACCGAGAAGTTACAGATGCAACACGTCGATCCATCACAAGAAAATATCGTTGTACAGAAATAAGGATTATTGCGACGGATGAAAGCAGCGCCAAAAACGCCTAAAGCAAAACGTCAGGAAGAACAGGCCAACT (double strand) [ftsI promoter probe]”: no binding.

For at least one entry, the source does not settle the construct or the ends of the probe. No signal at the amounts used counts as a negative.
